SMILES strings stand for the structures. This is a selection; strong and weak results do not stand in their true shares. Entries with a potency or affinity are not part of this list. Calls of active or inactive are those of the source.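 Rule for the calls: active = compound inhibiting the enzyme by more than half at any dose during confirmatory dose-response retesting; inconclusive = strong single-dose inhibitors picked by rank but not retested; inactive = the rest.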

By UniProt entry, the sequences of proteins in these tests, tags left out.
UniProt Q8IL11, whole entry: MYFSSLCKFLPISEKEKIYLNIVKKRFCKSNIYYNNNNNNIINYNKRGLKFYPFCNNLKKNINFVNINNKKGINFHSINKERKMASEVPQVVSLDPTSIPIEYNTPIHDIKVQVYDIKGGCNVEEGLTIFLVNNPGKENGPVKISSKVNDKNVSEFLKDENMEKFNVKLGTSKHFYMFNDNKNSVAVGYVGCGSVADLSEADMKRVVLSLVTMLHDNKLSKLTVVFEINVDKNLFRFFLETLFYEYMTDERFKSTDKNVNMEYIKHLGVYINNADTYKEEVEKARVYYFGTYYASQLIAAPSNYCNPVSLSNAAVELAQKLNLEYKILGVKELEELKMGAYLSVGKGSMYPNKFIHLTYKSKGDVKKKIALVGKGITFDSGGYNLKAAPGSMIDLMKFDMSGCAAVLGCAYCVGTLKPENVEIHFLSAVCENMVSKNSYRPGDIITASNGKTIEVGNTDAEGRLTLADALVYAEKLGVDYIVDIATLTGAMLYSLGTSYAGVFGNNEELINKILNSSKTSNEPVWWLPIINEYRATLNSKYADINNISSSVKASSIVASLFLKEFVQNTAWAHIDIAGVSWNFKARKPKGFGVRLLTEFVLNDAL

The target in the assay is Leucine aminopeptidase (Plasmodium falciparum (isolate 3D7)) (UniProt Q8IL11). Put plainly: P. falciparum M17LAP inhibitors, primary screen, biochemical, fluorogenic H-Leu-NHMec substrate, 1536-well (AID 1619).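 Note: plate controls were full reaction with DMSO carrier for no effect and no enzyme background for full effect.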 To be noted: recombinant M17LAP, H-Leu-NHMec fluorogenic kinetic assay; at 30 µM; active compounds read high.
`COc1ccc(C(=O)NCC2(N3CCCCC3)CCCCC2)c(OC)c1OC`: the inhibition is inactive: 1.24%.
Next, `CCOC(=O)N1CCC(Nc2ccc(OC)cc2)CC1`: inactive: -3.28%; `N#CC1(Nc2ccccc2)CCN(Cc2ccccc2)CC1`: inactive: -3.46%; `O=C(OC1CN2CCC1CC2)C1c2ccccc2Oc2ccccc21` (centres undefined): inactive: 6.19%.
Regarding `O=C(NCC1(N2CCOCC2)CCCCC1)c1cc2ccccc2o1`, the inhibition was inactive: 4.56%.
Next, `COc1ccc(NC2CCN(CCc3ccccc3)CC2)c(OC)c1`: inactive: 7.9%; `CCOc1ccc(C)cc1CN(CCCl)CCCl`: inactive: -2.36%; `Cc1ccc(OCC(C)C)c(CN(CCCl)CCCl)c1`: inactive: -6.58%.
The figure for `O=C(NCC1(N2CCCCC2)CCCCC1)c1cccc([N+](=O)[O-])c1` is inactive: -2.25%.
Consider `N#CC1(Nc2ccccc2)CCN(CCc2ccccc2)CC1`, for which the inhibition was inactive: 11.7%.
For the molecule `COc1ccc(NC2CCN(C(=O)OC(C)(C)C)CC2)cc1`, the inhibition was inactive: 7.81%.
The figure for `CN1CCN(CCOC(=O)C(O)(c2ccccc2)c2ccccc2)CC1` is inactive: 8.02%.
Regarding `O=C(NCC1(N2CCOCC2)CCCCC1)c1cc(=O)[nH]c2ccccc12`, the inhibition is inactive: 0.43%.
The figure for `COc1ccc(CN(CCCl)CCCl)cc1Cl` is inactive: 17.7%.
As to `CN(C)c1cccc(C(=O)NCC2(N3CCCCC3)CCCCC2)c1`, the inhibition was inactive: 3.55%.
With `CC(C)c1ccc(NC2CCN(C(=O)OC(C)(C)C)CC2)cc1`, the inhibition was inactive: 3.94%.
On to `COc1ccc(C(=O)NCC2(N3CCOCC3)CCCCC2)cc1OC`, for which the inhibition is inactive: 9.48%.
The figure for `O=C(OC1CN2CCC1CC2)C1c2ccccc2C=Cc2ccccc21` (centres undefined) is inactive: 2.17%; for `N/C(=N\O)c1c(N)no[n+]1[O-]` it is inactive: 2.93%; for `N#Cc1ccc(C(=O)NCC2(N3CCCCC3)CCCCC2)cc1` it is inactive: -7.67%.
Regarding `c1ccc(CN2CCC(Nc3ccccc3)CC2)cc1`, the inhibition was inactive: -8.49%.
Turning to `Fc1ccccc1NC1CCN(Cc2ccccc2)CC1`, the inhibition was inactive: -0.07%.
Regarding `CN(C)c1ccc(C(=O)NCC2(N3CCCCC3)CCCCC2)cc1`, the inhibition was inactive: 19.4%.
Next, `CCN1CCC(Nc2cccc(F)c2)CC1`: inactive: -12.3%.
In the case of `CC(C)(C)OC(=O)N1CCC(Nc2ccccc2)CC1`, the inhibition was inactive: 5.97%.
The figure for `CCOc1ncccc1C(=O)NCC1(N2CCOCC2)CCCCC1` is inactive: -11.4%.
`CCCOc1ccc(C)cc1CN(CCCl)CCCl`: the inhibition is inactive: -2.9%.
The figure for `CCC(CO)(C(=O)OC1CN2CCC1CC2)c1ccccc1` (centres undefined) is inactive: 3.51%.
Next, `COc1cc(OC)cc(C(=O)NCC2(N3CCOCC3)CCCCC2)c1`: inactive: -1.48%.
